Data as given in PubChem BioAssay AID504761 (Drosophila RNAi Screening Center, 2011).
The screen tested about 22,000 reagents; this is a random part of those that have a named target and a result. In the full data, 116 (0.52%) got an active call. 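Calls depend on retest data that are not deposited; infection was ranked per plate without normalising between plates; the unit of the infection score is not given.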 Raw values vary from plate to plate and are shown uncorrected. A plus sign joins genes that one reagent is predicted to hit. Not all columns of the deposit are shown. The record does not give: the amount of reagent, the time to read-out.

- Test: 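Fly genes whose silencing reduces dengue virus type 2 infection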 (primary screen)
- System: D.Mel-2 cells from Drosophila
- Reagents: long dsRNA against Drosophila genes
- Challenge: infection with dengue virus type 2; dose and infection time not stated
- Measurement: 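Cells stained for dengue envelope protein and imaged; percent of infected cells per well on duplicate plates, ranked by infection, with stained nuclei counted for cell number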
- Direction: infection score: higher = more virus-infected cells; cell count: higher = more cells in the well
- Rule for the call: 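Low infection ranks in the two replicates (chance level up to 0.065) followed by a retest with a 1.5-fold or larger significant decrease, p below 0.05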
- Meaning of the calls: active = confirmed: knock-down lowers infection; inactive = not picked or not confirmed

Coq3 (Coenzyme Q3) [DRSC03168]
- infection score, replicate 1: 16.7
- cell count, replicate 1: 6284
- Call: inactive

Obp56g (Odorant-binding protein 56g) [DRSC06432]
- infection score, replicate 1: 2.9
- cell count, replicate 1: 5594
- Call: inactive

PGRP-SC2 (Peptidoglycan recognition protein SC2) [DRSC06481]
- infection score, replicate 1: 17.5
- cell count, replicate 1: 6486
- Call: inactive

PGRP-SC2 (Peptidoglycan recognition protein SC2) [DRSC25449]
- infection score, replicate 1: 1.73
- cell count, replicate 1: 6235
- Call: inactive

l(2)34Fd (lethal (2) 34Fd) [DRSC01911]
- infection score, replicate 1: 9.72
- cell count, replicate 1: 5337
- Call: inactive

CG3708 [DRSC18646]
- infection score, replicate 1: 12
- cell count, replicate 1: 3407
- Call: inactive

Rcc1 (Regulator of chromosome condensation 1) [DRSC09684]
- infection score, replicate 1: 11.1
- cell count, replicate 1: 4176
- Call: inactive

Rcc1 (Regulator of chromosome condensation 1) [DRSC28981]
- infection score, replicate 1: 9.1
- cell count, replicate 1: 2900
- Call: inactive

CG14154 [DRSC10156]
- infection score, replicate 1: 0.73
- cell count, replicate 1: 6062
- Call: inactive

AOX4 (Aldehyde oxidase 4) [DRSC15337]
- infection score, replicate 1: 2.47
- cell count, replicate 1: 6241
- Call: inactive

AOX4 (Aldehyde oxidase 4) [DRSC26337]
- infection score, replicate 1: 8.75
- cell count, replicate 1: 4969
- Call: inactive

CG31128 [DRSC13675]
- infection score, replicate 1: 2.54
- cell count, replicate 1: 6306
- Call: inactive

CG13001 [DRSC24970]
- infection score, replicate 1: 4.45
- cell count, replicate 1: 6474
- Call: inactive

Ance-5 [DRSC04055]
- infection score, replicate 1: 13.4
- cell count, replicate 1: 6338
- Call: inactive

Ance-5 [DRSC27189]
- infection score, replicate 1: 6.05
- cell count, replicate 1: 7042
- Call: inactive

Graf (GTPase regulator associated with FAK) [DRSC20131]
- infection score, replicate 1: 1.03
- cell count, replicate 1: 6533
- Call: inactive

lncRNA:roX2 (long non-coding RNA on the X 2) [DRSC22237]
- infection score, replicate 1: 8.78
- cell count, replicate 1: 6559
- Call: inactive

lncRNA:roX2 (long non-coding RNA on the X 2) [DRSC27049]
- infection score, replicate 1: 16.2
- cell count, replicate 1: 6544
- Call: inactive

CG7627 [DRSC03065]
- infection score, replicate 1: 1.26
- cell count, replicate 1: 6450
- Call: inactive

CG7627 [DRSC24481]
- infection score, replicate 1: 9.81
- cell count, replicate 1: 6136
- Call: inactive

CG32576 + UQCR-14 [DRSC19870]
- infection score, replicate 1: 12.8
- cell count, replicate 1: 5619
- Call: inactive
